For this assay, the target named is HCV NS5B RNA-dependent RNA polymerase (1b-BKΔ55) (Hepatitis C virus genotype 1b, UniProt P26663). Conditions: read-out: NTP Ki; nucleoside triphosphate analog; Ki from NS5B IC50 by Cheng-Prusoff.

Sequences of proteins named here, by UniProt entry; tags and fusion partners are left off. A change or cut given only in a name is not applied to a line headed by its entry. Residues count along the entry.
UniProt P26663, 2420-2955 limits assumed, stated change not applied: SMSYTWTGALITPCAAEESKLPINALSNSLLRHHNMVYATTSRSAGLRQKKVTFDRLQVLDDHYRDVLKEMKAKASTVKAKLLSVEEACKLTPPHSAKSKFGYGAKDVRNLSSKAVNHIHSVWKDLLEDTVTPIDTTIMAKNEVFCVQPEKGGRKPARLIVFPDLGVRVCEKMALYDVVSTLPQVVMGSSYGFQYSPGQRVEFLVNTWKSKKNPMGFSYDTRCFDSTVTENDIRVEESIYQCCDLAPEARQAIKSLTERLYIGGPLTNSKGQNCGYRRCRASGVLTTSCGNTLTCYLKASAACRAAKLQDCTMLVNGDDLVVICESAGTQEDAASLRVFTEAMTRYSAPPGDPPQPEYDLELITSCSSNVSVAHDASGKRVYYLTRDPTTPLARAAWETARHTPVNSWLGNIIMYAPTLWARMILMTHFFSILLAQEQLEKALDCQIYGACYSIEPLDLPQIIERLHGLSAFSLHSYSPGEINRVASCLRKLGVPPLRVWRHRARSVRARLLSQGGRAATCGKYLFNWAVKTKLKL

As for `CC(C)OC(=O)[C@H](C)NP(=O)(OC[C@H]1O[C@@H](n2ccc(=O)[nH]c2=O)[C@](C)(F)[C@@H]1O)Oc1ccccc1` (stereo partly shown), the Ki was 1500 nM.

With `CCOC(=O)[C@H](C)NP(=O)(OC[C@H]1O[C@@H](n2cnc3c(OC)nc(N)nc32)[C@](C)(N=[N+]=[N-])[C@@H]1O)Oc1ccccc1` (stereo partly shown), the Ki was 30 nM.

Take `CC(C)OP1(=O)OC[C@H]2O[C@@H](n3ccc(=O)[nH]c3=O)[C@](C)(N=[N+]=[N-])[C@@H]2O1` (stereo partly shown): the Ki was 9000 nM.

For the compound `CC(C)OC(=O)[C@H](C)NP(=O)(OC[C@H]1O[C@@H](n2ccc(N)nc2=O)[C@](C)(N=[N+]=[N-])[C@@H]1O)Oc1ccccc1` (stereo partly shown) [Compound 22], the inhibition constant (Ki) was 300 nM.

What is called Ki is the equilibrium dissociation constant of an inhibitor or competing ligand from its target.
